Target: HIV-1 RT (Human immunodeficiency virus type 1 group M subtype B, UniProt P03366)
Experiment: HIV-1 RT inhibition assay
Assay type: biochemical

`Cc1cc(C#N)cc(C)c1Oc1nc(Nc2ccc(C#N)cc2)nc(N)c1Br` [ETR, etravirine, reference compound] gave an IC50 of 232 ± 36 nM.
